A mixed list of measured activities; the numbers were collected in NIAID ChemDB.

All rows: growth or infection tests; agent: Candida albicans

ECn: concentration that inhibits the pathogen or its effect by n%. Blank or dashed fields: not listed here. A number after MIC or MFC names an inhibition level or a share of isolates. Neighbouring rows are from separate reports.

compound	strain or isolate	method	measure	conditions	result
Nc1[nH]c(=O)ncc1F	2715	-	MIC	-	1 µg/mL
O=[n+]1c(Sc2ccccc2)c(CBr)n([O-])c2ccccc21	Clinical isolate 10	-	MIC	-	31.25 µg/mL
C[C@H]1[C@H](O)[C@@H](C)/C=C/C=C/C=C/C=C/C=C/C=C/C=C/[C@H](O[C@@H]2O[C@H](C)[C@@H](O)[C@H](N)[C@@H]2O)C[C@@H]2O[C@](O)(C[C@@H](O)C[C@@H](O)CC[C@H](O)[C@@H](O)C[C@@H](O)CC(=O)O[C@H]1C)C[C@H](O)[C@H]2C(=O)O	ATCC 10231	-	MIC	-	1.56 µg/mL
Cn1ccc2c(O)c(C(=O)/C=C/c3ccccc3)ccc21	-	-	MIC	-	25 µg/mL
CCC(C)CC(C)CCCCCCCCC(=O)N[C@H]1C[C@@H](O)[C@H](NCCN)NC(=O)[C@@H]2[C@@H](O)CCN2C(=O)[C@H]([C@H](O)CCN)NC(=O)[C@H]([C@H](O)[C@@H](O)c2ccc(O)cc2)NC(=O)[C@@H]2C[C@@H](O)CN2C(=O)[C@H]([C@@H](C)O)NC1=O	40 isolates	-	MIC	-	16 µg/mL
CCCCCOc1ccc(-c2ccc(-c3ccc(C(=O)N[C@H]4C[C@@H](O)[C@@H](O)NC(=O)[C@@H]5[C@@H](O)[C@@H](C)CN5C(=O)[C@H]([C@H](C)O)NC(=O)[C@H]([C@H](O)[C@@H](O)c5ccc(O)cc5)NC(=O)[C@@H]5C[C@@H](O)CN5C(=O)[C@H]([C@H](C)O)NC4=O)cc3)cc2)cc1	63 isolates	-	MIC50	-	0.5 µg/mL
COc1ccc(C2CC(=O)CC(c3ccc(OC)cc3)N2OCCc2nc3ccccc3o2)cc1	-	-	MIC	-	50 µg/mL
CC[C@@H]([C@H](C)O)n1ncn(-c2ccc(N3CCN(c4ccc(OC[C@@H]5CO[C@@](Cn6cncn6)(c6ccc(F)cc6F)C5)cc4)CC3)cc2)c1=O	10 strains (fluconazole-resistant)	-	MIC50	-	0.5 µg/mL
COc1cc2c(cc1OC)-c1cc3ccc(OC)c(OC)c3c[n+]1CC2	ATCC 10231	-	MIC	-	>500 µg/mL
COc1ccc(CC(c2ccc(OC)cc2)n2cnnc2)cc1	28 strains	-	MIC50	-	256 µg/mL
Cc1nc([N+](=O)[O-])cn1CCc1nc(Nc2ccc(Cl)cc2)n[nH]1	-	-	MIC	-	500 µg/mL
CCC(c1ccc(Cl)cc1)C(c1ccc(OC)cc1)n1cncn1	28 strains	-	EC50	-	<256 µg/mL
Nc1ccc(NC(=O)c2ccc(Br)cc2)c(O)c1	Isolates	-	MIC	-	125 µg/mL
OC(Cn1cncn1)(Cn1cncn1)c1ccc(F)cc1F	Isolate HR-Micro	-	MIC90	24 h	12.5 µg/mL
Clc1ccc(Nc2n[nH]c(CCn3cnc4ccccc43)n2)cc1	-	-	MIC	-	500 µg/mL
CC(=O)C1CCc2sccc2C1=O	-	-	MIC	-	25 µg/mL
Cc1c(Cl)[n+](=O)c2cc(Cl)ccc2n1[O-]	Clinical isolate 1	-	MIC	-	15.6 µg/mL
CC(C)(C)c1ccc(C(=O)Nc2ccc(N)cc2O)cc1	ATCC 10231	-	MIC	-	15.6 µg/mL
CCC(C)n1ncn(-c2ccc(N3CCN(c4ccc(OC[C@H]5CO[C@](Cn6cncn6)(c6ccc(Cl)cc6Cl)O5)cc4)CC3)cc2)c1=O	63U	broth dilution	MIC	-	1 µg/mL
O=c1c(O)c(-c2ccccc2)oc2c1ccc1sccc12	-	-	MIC	-	>50 µg/mL
Nc1ccc(O)c(NC(=O)c2ccccc2)c1	ATCC 10231	-	MIC	-	31.25 µg/mL
COc1ccc(C(=O)CC(=O)c2ccc3c(ccn3C)c2OC)cc1	-	-	MIC	-	25 µg/mL
Cc1c(S(=O)(=O)c2ccccc2)[n+](=O)c2ccccc2n1[O-]	Clinical isolate 14	-	MIC	-	15.6 µg/mL
O=C(Nc1ccc([N+](=O)[O-])cc1O)c1ccc(F)cc1	ATCC 10231	-	MIC	-	7.8 µg/mL
Cc1ccc(Nc2n[nH]c(CCn3cc([N+](=O)[O-])nc3C)n2)cc1	-	-	MIC	-	500 µg/mL
C=C1C(=O)OCC1COC(=O)CCCCC	A9540	-	MIC	-	50 µg/mL
COc1ccc(C(Cc2ccc(Cl)cc2Cl)C(c2ccc(OC)cc2)n2ccnc2)cc1	28 strains	-	MIC50	-	16 µg/mL
CCCC[C@@H](C)/C=C(C)/C=C(\C)C(=O)N/C(=C/[C@@](C)(O)/C=C/C=C/C=C/C(=O)NC1=C(O)CCC1=O)C(=O)[C@@H]1CO1	2	broth dilution	MIC	-	13 µM
CC1C(=O)CC(c2ccccc2)N(OCCc2nc3ccccc3o2)C1c1ccccc1	-	-	MIC	-	50 µg/mL
CCC(c1ccc(Cl)cc1)C(c1ccc(OC)cc1)n1ccnc1	28 strains	-	MIC90	-	32 µg/mL
CC1C(=O)C(C)C(c2ccccc2)N(OCCc2nc3ccccc3o2)C1c1ccccc1	-	-	MIC	-	100 µg/mL
O=C(O)CCC(=O)OC[C@@H](NC(=O)C(Cl)Cl)[C@H](O)c1ccc([N+](=O)[O-])cc1	-	-	MIC	-	500 µg/mL
Nc1ccc(O)c(NC(=O)c2ccc(F)cc2)c1	ATCC 10231	-	MIC	-	15.6 µg/mL
Cc1ccc(Nc2n[nH]c(CCn3cnc([N+](=O)[O-])c3)n2)cc1	-	-	MIC	-	500 µg/mL
COc1ccc(C(O)Cc2ccc(Cl)cc2)cc1	28 strains	-	MIC90	-	128 µg/mL
Cc1c(Sc2ccccc2)[n+](=O)c2cc(C(F)(F)F)ccc2n1[O-]	Clinical isolate 11	-	MIC	-	62.5 µg/mL
Cc1ccc(CC(=O)Nc2ccc(N)cc2O)cc1	ATCC 10231	-	MIC	-	250 µg/mL
CCC(C(=O)c1ccc(OC)cc1)c1ccc(OC)cc1	28 strains	-	EC50	-	>256 µg/mL

Repeating the first 4 entries:

compound | strain or isolate | method | measure | conditions | result
Nc1[nH]c(=O)ncc1F | 2715 | - | MIC | - | 1 µg/mL
O=[n+]1c(Sc2ccccc2)c(CBr)n([O-])c2ccccc21 | Clinical isolate 10 | - | MIC | - | 31.25 µg/mL
C[C@H]1[C@H](O)[C@@H](C)/C=C/C=C/C=C/C=C/C=C/C=C/C=C/[C@H](O[C@@H]2O[C@H](C)[C@@H](O)[C@H](N)[C@@H]2O)C[C@@H]2O[C@](O)(C[C@@H](O)C[C@@H](O)CC[C@H](O)[C@@H](O)C[C@@H](O)CC(=O)O[C@H]1C)C[C@H](O)[C@H]2C(=O)O | ATCC 10231 | - | MIC | - | 1.56 µg/mL
Cn1ccc2c(O)c(C(=O)/C=C/c3ccccc3)ccc21 | - | - | MIC | - | 25 µg/mL